Changes are numbered by the printed parent chain. Human monoclonal antibodies against the spike receptor-binding domain (heavy:light variable regions). IC50 against pseudoviruses bearing the spike of naturally observed variants; lower = stronger; >10 µg/ml means not reached at the top dose. No active / inactive call. The stated detection limit is 0.0005 µg/ml; values near or below 0.001 µg/ml lie at the floor of the assay.
B1: BD56-461 (protein)
chain 1: EVQLVESGGVVLQPGGSLRLSCETSGFTFDEYAMHWVRQAPGKGLEWVSLITWDGGTTYYADSVKGRFTISRDNSKNSLYLQMNSLRPEDTALYYCAKGGEWLDFAPSIWVLDSWGQGTLVSVSS
chain 2: DIVMTQSPDSLAVSLGERATINCKSSQSLLYRSNNKNFLAWYQQKPGQPPKLLINWASTRESGVPDRFSGSGSGTDFTLTISSLQAEDVAVYYCQQYYTTPPLTFGGGTKVEIK
B2: BD56-466 (protein)
chain 1: QVQLVESGGGVVQPGTSLRLSCAASGFTFRNYGMHWVRQAPGKGLEWVALISFDGSDKYYADSGKGRFTISRDNSKNTLYLQMNSLRAEDTAVYYCAKADSSFTMVRGVVTNNFDFWGQGTLVTVSS
chain 2: SYVLTQAPSVSAVPGKTARITCGGNSIGSKSVHWYQQKPGQAPVAVIFYDSDRPSGIPERFSGSNSGNTAILSISGVEAGDEADYYCQVWDSSSDHVVFGGGTKLTVL
B3: BD56-469 (protein)
chain 1: QVQLVESGGGVVQPGRSLKLSCVASGFTFSRYGMHWVRQAPGKGLEWVAVIWYDGSKKYYADSVKGRFTISRDISKNTLYLQVNSLRAEDTALYYCARGQVYYDSGGWERSDPFDSWGQGTLVTVSS
chain 2: DIQMTQSPSTLSASVGDRVTITCRASQNISSWLAWYQQKPGKAPNVLIYKASSLESGVPSRFSGSGSGTEFTLTISSLQPDDFATYYCQEYTSYWTFGQGTKVEIQ
B4: BD56-470 (protein)
chain 1: QVQLVQSGAEVKKPGASVKVSCKASGNTLTSYGISWVRQAPGQGPEWLGWISVYNGYTDYAQKLQDRVTMTTDTSTSTAYMELRSLRSDDTAVYYCVIDRYCSSASCYVGEYYYTMDVWGQGTTVTVSS
chain 2: EIVLTQSPGTLSLSPGERATLSCRASQSVRGSYLAWYQQKPGQAPRLLIYDASNRATGIPDRFSGSGSGTDFTLTISRLEPEDFAVYYCQQYGSSPQTFGQGTKVEIK
B5: BD56-474 (protein)
chain 1: QVQLVQSGAEVKKPGSSVKVSCKASGGTFSNNAINWVRQAPGQGLEWMGRIIPIFGITNYAQQFQGRVTITADKSTSTGYMELSSLRSADTAVYYCARGGMVGAEYYFDYWGQGTLVTVSS
chain 2: DIVMTQSPDSLAVSLGERATINCKSSQSLLYSSNNKNHLAWYQQKPGQPPKLLLYWSSTRESGVPDRFSGSGSGTDFTLTISGLQAEDVAVYYCQQYYSTSSRTFGQGTKVEIK
B6: DH1183 (protein)
chain 1: QVQLVESGGGVVQPGRSLRLSCAASGFTFSSYAMHWVRQAPGKGLEWVAVISYDGSNKYYADSVKGRFTISRDNSKNTLYLQMNSLRAEDTAVYYCAREDYYDSSGSLDYWGQGTLVTVSS
chain 2: QSALTQPASVSGSPGQSITISCTGTSSDVGGYNYVSWYQQHPGKAPKLMIYDVSNRPSGVSNRFSGSKSGNTASLTISGLQAEDEADYYCSSYTSSSTWVFGGGTKLTVL
B7: BD56-481 (protein)
chain 1: QVQLVQSGAEVKKPGSSVKVSCKASGGTFSSYTISWVRQAPGQGLEWMGRIIPILGIADYAQKFQGRVTITADKSTSTAYMELSSLRSEDTAFYYCARSGLLFDDGSGREYYYYGMDVWGQGTTVTVSS
chain 2: EIVMTQSPATLSVSPGERASLSCRASQSVGNNLTWYQQKPGQAPRLLIYDASTRATGIPARFSGSGSGTEFTLTISSLQSEDFAVYYCQQYNSWYTFGQGTKLEIK
B8: BD56-484 (protein)
chain 1: QVQLVESGGGAVQPGRSLRLSCTASGFTFSRYTIHWVRQAPGKGLEWVAVISYDGTFRYYADSVKGRFTISRDNSKNTLSLQMSSLRGEDTAIYYCARDQVVGSGWSSSFDYWGQGTLVTVSS
chain 2: QSALTQPRSVSGSPGQSITISCTGTSRDVGSYNYVSWYQQHPGKAPKLIIYDVTKRPSGVPGRFSASKSDNTASLTISGLQADDEGDYYCCSYAGDNTFDAYVFGTGTKVTVL
B9: BD56-489 (protein)
chain 1: MQLVQSGPEVKKPGTSVKVSCKAPGFTFTISSVQWVRQARGHRLEWIGWIVIGSANTKYAQNFQERATFTRDMSTGTAYMELSSLRSEDTAVYYCAAPHCNKSRCYDAFDIWGQGTMVTVSS
chain 2: B4 chain 2 with Q27R, R30N, G31S, S32H, K40E, A44P, D51A, N54S, Q97W
B10: DH1128 (protein)
chain 1: EVQLVESGGDLVQPGGSLRLSCAASGFTFSTYAMTWVRQAPGKGLEWVSTISTTGGDTYYADSVKGRFTISRDNSKNTLNLHMNSLRAEDTAVYSCARHNELDYWGQGTLVTVSS
chain 2: EIVLTQSPDFQSVTPNEKVTITCRASQSIGSSLHWYQQKPDQSPKLLIKYASQSLSGVPSRFSGSGSGTDFTLTINSLEVEDGATYYCHQSSSFPRTFGQGTKVEIK
B11: BD56-493 (protein)
chain 1: QVQLVQSGAEVTKPGSSVKVSCKTSGDTFSRYAISWVRQAPGQGLDWMGRIIPMFGIANYAQKFQGRVTMTADKSTSTAYLELSSLRSEDTAMYYCARTPFYSDSTGYYLDYWGQGTLVTVSS
chain 2: B4 chain 2 with R30S, A44P, D51G, N54S, G93V, S94N, Q97R
B12: BD56-494 (protein)
chain 1: VRLVESGGGLVQPGGSLRLSCAASGFTSFNYWMTWVRQAPGKGLEWVATIKQDGSESYYVDSVKGRFTISRDNAKNSLYLQMNSLRAEDTAVYYCARDGGQLSWFVESYFDYWGQGILVTVSP
chain 2: SYELTQSPSVSVSPGQTARITCSGDALPLQYTYWYQQKPGQAPVLVIYKDTERPSDIPERFSGSSSGTTGTLTISGVQAEDEADYYCQSGDSRGVVFGGGTKLTVL

target: SARS-CoV-2 Omicron BA.1 spike pseudovirus; assay: pseudovirus neutralization IC50; higher = weaker neutralization
Method: (§1)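 Single-round VSV luciferase pseudovirus mixed with antibody dilutions for 1 h and put on Huh-7 cells for about a day; IC50 from the dose curve.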

Compared with B1, B2 is higher in “pseudovirus neutralization IC50” value: 8.68 µg/mL for the first, greater than 10 µg/mL for the second.

Compared with B3, B4 is 890-fold lower in “pseudovirus neutralization IC50” value: 3.98 µg/mL for the first, 0.00447 µg/mL for the second.

Going from B5 to B6, the “pseudovirus neutralization IC50” value rises from 0.0256 µg/mL to greater than 10 µg/mL.

First: B7
Second: B8
The “pseudovirus neutralization IC50” value of the first is higher: greater than 10 µg/mL for the first, 1.93 µg/mL for the second.

Compared with B9, B10 is higher in “pseudovirus neutralization IC50” value: 0.00944 µg/mL for the first, greater than 10 µg/mL for the second.

Compared with B11, B12 is higher in “pseudovirus neutralization IC50” value: 0.038 µg/mL for the first, greater than 10 µg/mL for the second.

target: SARS-CoV-2 Omicron BA.2 spike pseudovirus; assay: as above
Method: as §1

Going from B1 to B2, the “pseudovirus neutralization IC50” value rises from 8.6 µg/mL to greater than 10 µg/mL.

Going from B3 to B4, the “pseudovirus neutralization IC50” value falls from 7.13 µg/mL to 0.00479 µg/mL (1500-fold).

Going from B5 to B6, the “pseudovirus neutralization IC50” value rises from 0.0325 µg/mL to greater than 10 µg/mL.

First: B7
Second: B8
The “pseudovirus neutralization IC50” value of the first is higher: greater than 10 µg/mL for the first, 1.76 µg/mL for the second.

First: B9
Second: B10
The “pseudovirus neutralization IC50” value of the first is lower: 0.00721 µg/mL for the first, greater than 10 µg/mL for the second.

Compared with B11, B12 is higher in “pseudovirus neutralization IC50” value: 0.0527 µg/mL for the first, greater than 10 µg/mL for the second.

target: SARS-CoV-2 Omicron BA.2.75 spike pseudovirus; assay: as above
Method: as §1

B1 and B2 cannot be ordered by “pseudovirus neutralization IC50” value: greater than 10 µg/mL for the first, greater than 10 µg/mL for the second.

Compared with B3, B4 is lower in “pseudovirus neutralization IC50” value: greater than 10 µg/mL for the first, 0.0043 µg/mL for the second.

Compared with B5, B6 is higher in “pseudovirus neutralization IC50” value: 0.00337 µg/mL for the first, greater than 10 µg/mL for the second.

Going from B7 to B8, the “pseudovirus neutralization IC50” value falls from greater than 10 µg/mL to 1.79 µg/mL.

Going from B9 to B10, the “pseudovirus neutralization IC50” value rises from 0.0134 µg/mL to greater than 10 µg/mL.

Compared with B11, B12 is higher in “pseudovirus neutralization IC50” value: 0.00383 µg/mL for the first, greater than 10 µg/mL for the second.

target: SARS-CoV-2 Omicron BA.5 spike pseudovirus; assay: as above
Method: as §1

B1 and B2 cannot be ordered by “pseudovirus neutralization IC50” value: greater than 10 µg/mL for the first, greater than 10 µg/mL for the second.

Going from B3 to B4, the “pseudovirus neutralization IC50” value falls from 8.28 µg/mL to 3.35 µg/mL (2.5-fold).

B5 and B6 cannot be ordered by “pseudovirus neutralization IC50” value: greater than 10 µg/mL for the first, greater than 10 µg/mL for the second.

First: B7
Second: B8
The “pseudovirus neutralization IC50” value of the first is higher: greater than 10 µg/mL for the first, 4.6 µg/mL for the second.

B9 and B10 cannot be ordered by “pseudovirus neutralization IC50” value: greater than 10 µg/mL for the first, greater than 10 µg/mL for the second.

B11 and B12 cannot be ordered by “pseudovirus neutralization IC50” value: greater than 10 µg/mL for the first, greater than 10 µg/mL for the second.

target: SARS-CoV-2 Omicron BQ.1.1 spike pseudovirus; assay: as above
Method: as §1

B1 and B2 cannot be ordered by “pseudovirus neutralization IC50” value: greater than 10 µg/mL for the first, greater than 10 µg/mL for the second.

Going from B3 to B4, the “pseudovirus neutralization IC50” value falls from greater than 10 µg/mL to 2.85 µg/mL.

B5 and B6 cannot be ordered by “pseudovirus neutralization IC50” value: greater than 10 µg/mL for the first, greater than 10 µg/mL for the second.

B7 and B8 cannot be ordered by “pseudovirus neutralization IC50” value: greater than 10 µg/mL for the first, greater than 10 µg/mL for the second.

B9 and B10 cannot be ordered by “pseudovirus neutralization IC50” value: greater than 10 µg/mL for the first, greater than 10 µg/mL for the second.

B11 and B12 cannot be ordered by “pseudovirus neutralization IC50” value: greater than 10 µg/mL for the first, greater than 10 µg/mL for the second.

target: SARS-CoV-2 Omicron XBB spike pseudovirus; assay: as above
Method: as §1

B1 and B2 cannot be ordered by “pseudovirus neutralization IC50” value: greater than 10 µg/mL for the first, greater than 10 µg/mL for the second.

B3 and B4 cannot be ordered by “pseudovirus neutralization IC50” value: greater than 10 µg/mL for the first, greater than 10 µg/mL for the second.

B5 and B6 cannot be ordered by “pseudovirus neutralization IC50” value: greater than 10 µg/mL for the first, greater than 10 µg/mL for the second.

B7 and B8 cannot be ordered by “pseudovirus neutralization IC50” value: greater than 10 µg/mL for the first, greater than 10 µg/mL for the second.

B9 and B10 cannot be ordered by “pseudovirus neutralization IC50” value: greater than 10 µg/mL for the first, greater than 10 µg/mL for the second.

B11 and B12 cannot be ordered by “pseudovirus neutralization IC50” value: greater than 10 µg/mL for the first, greater than 10 µg/mL for the second.

target: SARS-CoV-2 early D614G spike pseudovirus; assay: as above
Method: as §1

Going from B1 to B2, the “pseudovirus neutralization IC50” value rises from 1.6 µg/mL to greater than 10 µg/mL.

Compared with B3, B4 is 40-fold lower in “pseudovirus neutralization IC50” value: 0.205 µg/mL for the first, 0.00509 µg/mL for the second.

First: B5
Second: B6
The “pseudovirus neutralization IC50” value of the first is lower: 0.00765 µg/mL for the first, greater than 10 µg/mL for the second.

First: B7
Second: B8
The “pseudovirus neutralization IC50” value of the first is 2.3-fold lower: 0.0884 µg/mL for the first, 0.201 µg/mL for the second.

Compared with B9, B10 is higher in “pseudovirus neutralization IC50” value: 0.00368 µg/mL for the first, greater than 10 µg/mL for the second.

Compared with B11, B12 is higher in “pseudovirus neutralization IC50” value: 0.00417 µg/mL for the first, greater than 10 µg/mL for the second.
